A mixed list of measured activities; the numbers were collected in NIAID ChemDB.

Shared fields: growth or infection tests

Fold resistance has wild type as its base. Neighbouring rows are from separate reports. An empty or dashed field is not shown. MIC50, MIC90 and the like: level of inhibition, or share of isolates inhibited. Inhibition is in % at the dose shown (toxicity tests: loss of growth or viability). ECn is the concentration giving n% inhibition of infection, replication or growth.

| structure | read by | strain | cells | tested at | measure | changes | setting | organism | result |
|---|---|---|---|---|---|---|---|---|---|
| COc1ccc2oc(=O)n(-c3ccc(C(F)(F)F)cc3)c(=S)c2c1 |  | 6509/96 |  |  | MIC |  | 14 d | Mycobacterium kansasii | 32 µM |
| Nc1c(S(=O)(=O)O)cc2cc(S(=O)(=O)O)cc(O)c2c1O | cytopathic effect | TYPE 3 | Human amnion AV3 cells | 10 µg/mL | inhibition |  |  | Adenovirus | 23% |
| Cn1cc(C(=O)NCc2ccc(Cl)cc2)c(=O)c2cc(CN3CCOCC3)ccc21 | plaque count | KL varicella isolate | HFF | 1.6 µM | inhibition |  |  | Varicella zoster virus | 90% |
| O=c1oc2ccc(Br)cc2c(=S)n1-c1cccc(Cl)c1 |  | 6509/96 |  |  | MIC |  | 14 d | Mycobacterium kansasii | 2 µM |
| CC(C)(O)c1cn(-c2ccc([N+](=O)[O-])cc2)nn1 | broth dilution | URM 1059 |  | 2048 µg/mL | inhibition |  |  | Candida krusei | 0% |
| CC1CCC(C(=O)N(c2cc(C#CC(C)(C)C)sc2C(=O)O)C2CCC(O)CC2)CC1 | luciferase | Con1 (gt 1b) | Huh7 |  | fold resistance | M423I |  | Hepatitis C virus | 5.6 |
| Cc1cn([C@@H]2O[C@H](CO)[C@@H](O)[C@@H]2F)c(=O)nc1N | plaque count | Kawaguchi | HELF | 0.01 µg/mL | inhibition |  |  | Varicella zoster virus | 86% |
| O=c1oc2ccc(Cl)cc2c(=S)n1-c1ccc(C(F)(F)F)cc1 |  | My 235/80 |  |  | MIC |  | 14 d | Mycobacterium kansasii | 16 µM |
| O=S(=O)([O-])c1ccc(NS(=O)(=O)c2ccccc2)c2c(S(=O)(=O)[O-])cccc12 | cytopathic effect | TYPE 3 | Human embryonic lung cells | 50 µg/mL | inhibition |  |  | Adenovirus | 0% |
| Fc1ccc2oc(=S)n(-c3ccc(Br)cc3)c(=S)c2c1 |  | 6509/96 |  |  | MIC |  | 21 d | Mycobacterium kansasii | 4 µM |
| O=c1[nH]c(=O)n([C@@H]2O[C@H](CO)[C@@H](O)[C@@H]2O)cc1/C=C/Br | plaque count | YS | HELF | 0.001 µg/mL | inhibition |  |  | Varicella zoster virus | 77% |
| CCCCCCCCCCCCOC(=O)[C@]1(O)C[C@@H](O)[C@@H](O)[C@H](OC(=O)/C=C/c2ccc(O)c(O)c2)C1 |  | Speare UMIP 1142.76 |  |  | MIC |  |  | Aspergillus parasiticus | 750 µg/mL |
| O=C1C(c2[nH]c3ccc(S(=O)(=O)O)cc3c2O)=Nc2ccc(S(=O)(=O)O)cc21 | cytopathic effect |  | Human conjunctiva cells | 50 µg/mL | inhibition |  |  | Herpes simplex virus | 0% |
| N#Cc1cc([N+](=O)[O-])ccc1Oc1ccc(Cl)c(Cl)c1 |  | TYPE A21 | VERO | 0.78 µg/mL | inhibition |  |  | Coxsackie virus | >99% |
| O=S(=O)(O)c1ccc2ccc(S(=O)(=O)O)cc2c1 | cytopathic effect |  | Human conjunctiva cells | 10 µg/mL | inhibition |  |  | Herpes simplex virus | 0% |
| Nc1nc2c(ncn2C=C2CC2CO)c(=O)[nH]1 | plaque count | VR6264 (ganciclovir-resistant) |  |  | EC50 |  |  | Human cytomegalovirus | 4 µM |
| O=c1[nH]c(=O)n([C@H]2C[C@H](O)[C@@H](CO)O2)cc1/C=C/Br | plaque count | KANNO | HELF | 0.1 µg/mL | inhibition |  |  | Varicella zoster virus | 100% |
| O=c1oc2ccc(Br)cc2c(=S)n1-c1ccccc1 |  | My 235/80 |  |  | MIC |  | 21 d | Mycobacterium kansasii | 4 µM |
| Cc1cc(-c2ccc(N=Nc3ccc4c(S(=O)(=O)O)cc(S(=O)(=O)O)c(N)c4c3O)c(C)c2)ccc1N=Nc1ccc2c(S(=O)(=O)O)cc(S(=O)(=O)O)c(N)c2c1O | cytopathic effect |  | Human conjunctiva cells | 50 µg/mL | inhibition |  |  | Herpes simplex virus | 100% |
| Cc1cn([C@@H]2O[C@H](CO)[C@@H](O)[C@@H]2O)c(=O)[nH]c1=O | plaque count | YS | HELF | 0.1 µg/mL | inhibition |  |  | Varicella zoster virus | 0% |
| CC(=O)N[C@H]1[C@H]([C@H](O)[C@H](O)CO)OC(C(=O)O)=C[C@@H]1N=C(N)N |  | Influenza A/Victoria/3/75 (H3N2) | MDCK |  | EC50 |  |  | Influenza A virus | 0.41 µM |
| OC[C@H]1O[C@@H](n2cnc3c(SCc4ccc(OC(F)(F)F)cc4)ncnc32)[C@H](O)[C@@H]1O |  | RH adenosine kinase-deficient |  | 5 µM | inhibition |  |  | Toxoplasma gondii | 0% |
| Cc1ccc2oc(=S)n(-c3ccc(Cl)cc3)c(=S)c2c1 |  | My 235/80 |  |  | MIC |  | 21 d | Mycobacterium kansasii | 4 µM |
| O=[N+]([O-])c1cc([N+](=O)[O-])c2ccc(S(=O)(=O)O)cc2c1O | cytopathic effect | TYPE 3 | Human amnion AV3 cells | 10 µg/mL | inhibition |  |  | Adenovirus | 15% |
| CC(C)(O)c1cn(-c2ccccc2)nn1 | broth dilution | URM 4608 |  | 2048 µg/mL | inhibition |  |  | Candida parapsilosis | 0% |
| N#Cc1ccc(CSc2ncnc3c2ncn3[C@@H]2O[C@H](CO)[C@@H](O)[C@H]2O)cc1 |  | RH adenosine kinase-deficient |  | 5 µM | inhibition |  |  | Toxoplasma gondii | 0% |
| O=C(O)c1ccc(S(=O)(=O)[O-])cc1C(=O)O | cytopathic effect | TYPE 3 | Human embryonic lung cells | 5 µg/mL | inhibition |  |  | Adenovirus | 0% |
| CO[C@H]1/C=C/O[C@@]2(C)Oc3c(C)c(O)c4c(O)c(c(/C=N/N5CCN(C6CCCC6)CC5)c(O)c4c3C2=O)NC(=O)/C(C)=C\C=C\[C@H](C)[C@H](O)[C@@H](C)[C@@H](O)[C@@H](C)[C@H](OC(C)=O)[C@@H]1C |  | 953 |  |  | MIC |  |  | Mycobacterium avium intracellulare | 2 µg/mL |
| CCCC(CCC)C(NC(C)=O)C1CC(C(=O)O)CC1N=C(N)N |  | H1N1 A/NWS/33 | MDCK |  | EC50 |  |  | Influenza A virus | 23 µM |
| Cc1ccc(-n2cc(C(C)(C)O)nn2)cc1C | broth dilution | URM 109 |  | 2048 µg/mL | inhibition |  |  | Candida krusei | 0% |
| CCC(CC)[C@H](NC(C)=O)[C@@H]1C[C@@H](C(=O)O)C[C@H]1N=C(N)N |  | Harbin/07/94 | MDCK |  | EC50 |  |  | Influenza B virus | 0.16 µM |
| C=Cc1cn([C@@H]2O[C@H](CO)[C@@H](O)[C@@H]2O)c(=O)[nH]c1=O | plaque count | HIRAI | HELF | 0.01 µg/mL | inhibition |  |  | Varicella zoster virus | 8% |
| CC(=O)N[C@H]1[C@H]([C@H](O)[C@H](O)CO)OC(C(=O)O)=C[C@@H]1N=C(N)N |  | H3N2 A/X-31 | MDCK |  | EC50 |  |  | Influenza A virus | 0.4 µM |
| CCO/N=C/c1ccc(OCCC2CCN(c3ccc(Cl)nn3)CC2)cc1 | neutral red | 611-CV35 (ICAM-1 receptor group 59) | KB |  | EC50 |  |  | Rhinovirus | 0.002 µM |
| O=S(=O)([O-])c1cc(O)c2ccccc2c1 | cytopathic effect | TYPE 3 | Human embryonic lung cells | 10 µg/mL | inhibition |  |  | Adenovirus | 0% |
| C=CCc1ccc(OC)c(OC)c1 | turbidity | 321 |  |  | MIC90 |  |  | Candida tropicalis | 345 µg/mL |
| O=C(Nc1cc(S(=O)(=O)O)cc2cc(S(=O)(=O)O)cc(O)c12)c1ccccc1 | cytopathic effect | TYPE 3 | Human amnion AV3 cells | 5 µg/mL | inhibition |  |  | Adenovirus | 0% |
| OC[C@H]1O[C@@H](n2c(Br)nc3cc(Cl)c(Cl)cc32)[C@H](O)[C@@H]1O | plaque count | TOWNE |  |  | EC50 |  |  | Human cytomegalovirus | 2.3 µM |
| CC(C)N=C(N)/N=C(\N)NOCCCOc1cc(Cl)c(Cl)cc1Cl |  | 4304-4 |  |  | MIC |  |  | Mycobacterium avium complex | 32 µg/mL |
| CC(C)(O)c1cn(-c2cccc3ccccc23)nn1 | broth dilution | URM 4386 |  | 2048 µg/mL | inhibition |  |  | Candida albicans | 0% |

For reference, 4 entries again:

| structure | read by | strain | cells | tested at | measure | changes | setting | organism | result |
|---|---|---|---|---|---|---|---|---|---|
| OC[C@H]1O[C@@H](n2cnc3c(SCc4ccc(OC(F)(F)F)cc4)ncnc32)[C@H](O)[C@@H]1O |  | RH adenosine kinase-deficient |  | 5 µM | inhibition |  |  | Toxoplasma gondii | 0% |
| O=c1[nH]c(=O)n([C@@H]2O[C@H](CO)[C@@H](O)[C@@H]2O)cc1/C=C/Br | plaque count | YS | HELF | 0.001 µg/mL | inhibition |  |  | Varicella zoster virus | 77% |
| Cc1ccc(-n2cc(C(C)(C)O)nn2)cc1C | broth dilution | URM 109 |  | 2048 µg/mL | inhibition |  |  | Candida krusei | 0% |
| O=c1oc2ccc(Br)cc2c(=S)n1-c1ccccc1 |  | My 235/80 |  |  | MIC |  | 21 d | Mycobacterium kansasii | 4 µM |